Data source: PubChem BioAssay AID624099 (ICCB-Longwood, 2012)
The deposit covers about 21,000 reagents; shown is an unselected part. 497 of all reagents (2.4%) count as active. 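Higher z means weaker E2 silencing; only reporter increases were scored, and knock-downs that hurt cell survival may mask genuine repressor factors.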 Unmarked entries are inactive.

- Aim: 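Host factors E2 relies on to silence an HPV18 LCR reporter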 (primary screen)
- System: human C33A cervical carcinoma cells (HPV-negative) stably expressing BPV1 E2 and an HPV18 LCR luciferase reporter
- Knock-down reagent: siRNA pool against human genes, 40 nM
- Time to read-out: 72 h
- Measured: 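HPV18 LCR reporter light per well, converted to plate-wise z-scores that exclude control wells, and averaged over triplicate plates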
- Reading the numbers: mean z-score and z-score: higher = stronger reporter signal, weaker E2 silencing
- Hit rule: 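Hit if mean z-score reaches 2 and two or more of three replicate z-scores also reach 2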

What did the screen give for SLC16A2?
mean z-score: -0.16; z-score, replicate A: 0.08; z-score, replicate B: -0.27; z-score, replicate C: -0.28

With CHST11 (carbohydrate sulfotransferase 11), what does the deposit list?
mean z-score: -0.09; z-score, replicate A: -0.5; z-score, replicate B: 0.17; z-score, replicate C: 0.05

What did the screen give for FLJ44796 (retired record)?
mean z-score: -1.05; z-score, replicate A: -1.48; z-score, replicate B: -0.77; z-score, replicate C: -0.89

With GLDC (glycine decarboxylase), what does the deposit list?
mean z-score: -0.22; z-score, replicate A: 0.06; z-score, replicate B: -0.18; z-score, replicate C: -0.54

How did the screen score TUBA4B (tubulin alpha 4b)?
mean z-score: 1.41; z-score, replicate A: 1.35; z-score, replicate B: 1.41; z-score, replicate C: 1.48

How did the screen score HBP1 (HMG-box transcription factor 1)?
mean z-score: -0.18; z-score, replicate A: -0.45; z-score, replicate B: -0.34; z-score, replicate C: 0.24

What did the screen give for COPS9 (COP9 signalosome subunit 9)?
mean z-score: 0.29; z-score, replicate A: -0.04; z-score, replicate B: 0.71; z-score, replicate C: 0.21

For CAMK2B (calcium/calmodulin dependent protein kinase II beta), what does the deposit list?
mean z-score: -1.17; z-score, replicate A: -1.45; z-score, replicate B: -1.25; z-score, replicate C: -0.82

With LRRC1 (leucine rich repeat containing 1), what was measured?
mean z-score: -0.86; z-score, replicate A: -0.79; z-score, replicate B: -1.23; z-score, replicate C: -0.58

For FEZF2 (FEZ family zinc finger 2), what does the deposit list?
mean z-score: 0.04; z-score, replicate A: 0.47; z-score, replicate B: -0.17; z-score, replicate C: -0.17

With SLC9A5, what does the deposit list?
mean z-score: 0.57; z-score, replicate A: 0.47; z-score, replicate B: 0.72; z-score, replicate C: 0.53

How did the screen score DMRTC1 (DMRT like family C1)?
mean z-score: -0.42; z-score, replicate A: -0.51; z-score, replicate B: -0.5; z-score, replicate C: -0.26

How did the screen score WDR70 (WD repeat domain 70)?
mean z-score: 0.32; z-score, replicate A: 0.84; z-score, replicate B: 0.28; z-score, replicate C: -0.17

A few values from the list.
Value for CHST11 (carbohydrate sulfotransferase 11) under “z-score, replicate C”: 0.05
For “mean z-score”, FEZF2 (FEZ family zinc finger 2) reads 0.04

Further reagents follow.
How did the screen score RPLP1 (ribosomal protein lateral stalk subunit P1)?
mean z-score: -1.86; z-score, replicate A: -2.18; z-score, replicate B: -1.52; z-score, replicate C: -1.89

For APEX2 (apurinic/apyrimidinic endodeoxyribonuclease 2), what does the deposit list?
mean z-score: -1.59; z-score, replicate A: -1.66; z-score, replicate B: -1.53; z-score, replicate C: -1.59

For IL33R (interleukin 33 receptor), what was measured?
mean z-score: 0.5; z-score, replicate A: 0.34; z-score, replicate B: 0.6; z-score, replicate C: 0.55

For LOC387821 (retired record), how do the results read?
mean z-score: -0.53; z-score, replicate A: -0.74; z-score, replicate B: -0.34; z-score, replicate C: -0.5

What did the screen give for C20orf144 (chromosome 20 open reading frame 144)?
mean z-score: 0.1; z-score, replicate A: -0.08; z-score, replicate B: -0.42; z-score, replicate C: 0.8

How did the screen score KCNA2 (potassium voltage-gated channel subfamily A member 2)?
mean z-score: -0.43; z-score, replicate A: -0.39; z-score, replicate B: -0.32; z-score, replicate C: -0.59

For KIF26A (kinesin family member 26A), how do the results read?
mean z-score: 5.09 (active); z-score, replicate A: 5.4; z-score, replicate B: 4.79; z-score, replicate C: 5.09

How did the screen score GOT1L1 (glutamic-oxaloacetic transaminase 1 like 1)?
mean z-score: -0.96; z-score, replicate A: -1.22; z-score, replicate B: -0.69; z-score, replicate C: -0.95
